Data reported in PMC10965894.

Tested on: His-ScbZIP72 (Saccharum spp. hybrid (sugarcane) cultivar ROC22)
Experiment: EMSA
Conditions: LightShift Chemiluminescent EMSA Kit (Thermo) per manual; pH and temperature not stated; recombinant protein; protein details: His (pET-28a); label: 3'-biotin

“TGTCGGTTGTACGTGTCCAGCACCTTTGTTCGGTGCGTGTCCTTTTCGGGCATCTGTGCCCATCTTCCTTTGTCGGCCACGTTGCCTTTGCTTA (double strand) [sL]”: binds.

The exact form of at least one protein or probe is not confirmed.
